A mixed list of measured activities; the numbers were collected in NIAID ChemDB.

Common to all: tests in culture; organism: Hepatitis C virus; cells: Huh7; endpoint: EC50

Conditions beyond the fields shown may differ between rows.

{"compound": "C=CC1C[C@@]1(NC(=O)[C@@H]1C[C@@H](Oc2cc(-c3ccccc3)nc3cc(OC)ccc23)CN1C(=O)[C@@H](NC(=O)OCCF)C(C)(C)C)C(=O)NS(=O)(=O)C1(Cc2ccccc2)CC1", "strain": "1b", "read by": "replicon", "result": "0.05–0.5 µM"}
{"compound": "CN(NS(C)(=O)=O)c1ncnc2c1ncn2[C@@H]1O[C@H](COP(=O)(OCCSC(=O)C(C)(C)C)OCCC(=O)C(C)(C)C)[C@@H](O)[C@@]1(C)O", "read by": "replicon", "result": "0.06 µM"}
{"compound": "C=C[C@H]1C[C@@]1(NC(=O)[C@@H]1C[C@@H](Oc2cc(-c3ccccc3)nc3cc(OC)ccc23)CN1C(=O)[C@@H](NC(=O)OC(C)(C)C)C(C)(C)C)C(=O)NS(=O)(=O)C1([Si](C)(C)C)CC1", "strain": "1b", "read by": "replicon", "result": "0.5–5 µM"}
{"compound": "COc1cc(Cc2cnc(/N=C3\\C(=O)N(CN4CCN(c5ccc(Cl)cc5)CC4)c4ccc(F)cc43)nc2N)cc(OC)c1OC", "result": "<50 µg/mL"}
{"compound": "COc1cc(CC(=O)N/N=C/c2ccccc2OS(=O)(=O)c2ccc(C(F)(F)F)cc2)cc(OC)c1OC", "read by": "replicon", "result": ">50 µM"}
{"compound": "COc1c(-c2ccc3cc(NS(C)(=O)=O)ccc3c2)cc(-n2ccc(=O)[nH]c2=O)cc1C(C)(C)C", "strain": "genotype 1a H77", "changes": "S556G", "read by": "luciferase", "result": "0.029 µM"}
{"compound": "CCN(CC)CN1C(=O)/C(=N\\c2ncc(Cc3cc(OC)c(OC)c(OC)c3)c(N)n2)c2cc(F)ccc21", "result": "<50 µg/mL"}
{"compound": "CC(C)(C)C(=O)CCOP(=O)(OCCSC(=O)C(C)(C)C)OC[C@H]1O[C@@H](n2cnc3c(NNS(C)(=O)=O)nc(N)nc32)[C@](C)(O)[C@@H]1O", "read by": "replicon", "result": "0.2 µM"}
{"compound": "C[C@@]1(O)[C@H](O)[C@@H](CO)O[C@H]1n1ccc(N)nc1=O", "result": "3.7 µg/mL"}
{"compound": "CN(N)c1ncnc2c1ncn2[C@@H]1O[C@H](COP(=O)(OCCSC(=O)C(C)(C)C)OCCC(=O)C(C)(C)C)[C@@H](O)[C@@]1(C)O", "read by": "replicon", "result": "0.045 µM"}
{"compound": "CCCCCCOC(=O)/C=C/c1ccc(O)c(O)c1", "strain": "2a", "read by": "luciferase", "result": "7.3 µM"}
{"compound": "CN(C)c1ccc(CC(=O)N/N=C/c2ccccc2OS(=O)(=O)c2ccc(C(F)(F)F)cc2)cc1", "read by": "replicon", "result": "<5 µM"}
{"compound": "C=CC1C[C@@]1(NC(=O)[C@@H]1C[C@@H](Oc2cc(-c3ccccc3)nc3cc(OC)ccc23)CN1C(=O)[C@@H](NC(=O)[C@@H](OC)c1ccccc1)C(C)(C)C)C(=O)NS(=O)(=O)C1(CC2CC2)CC1", "strain": "1b", "read by": "replicon", "result": "0.05–0.5 µM"}
{"compound": "CN(NS(C)(=O)=O)c1nc(N)nc2c1ncn2[C@@H]1O[C@H](COP(=O)(OCCSC(=O)C(C)(C)C)OCCC(=O)C(C)(C)C)[C@@H](O)[C@@]1(C)O", "read by": "replicon", "result": "0.024 µM"}
{"compound": "COc1ccccc1C(=O)N/N=C/c1ccccc1OS(=O)(=O)c1ccc(C(F)(F)F)cc1", "read by": "replicon", "result": ">50 µM"}
{"compound": "CCn1cc(C(=O)O)c(=O)c2cc(F)c(N3CCN(CN4C(=O)/C(=N\\c5ncc(Cc6cc(OC)c(OC)c(OC)c6)c(N)n5)c5cc(F)ccc54)C(C)C3)c(F)c21", "result": "<50 µg/mL"}
{"compound": "C=C[C@H]1C[C@@]1(NC(=O)[C@@H]1C[C@@H](Oc2cc(-c3ccccc3)nc3cc(OC)ccc23)CN1C(=O)[C@@H](NC(=O)NC(C)(C)C)C(C)(C)C)C(=O)NS(=O)(=O)C1(Cc2ccccc2)CC1", "strain": "1b", "read by": "replicon", "result": "0.05–0.5 µM"}
{"compound": "O=C(/C=C/c1cc(O)c(O)c(O)c1)OCCc1ccccc1", "strain": "2a", "read by": "luciferase", "result": "48.5 µM"}
{"compound": "C=C[C@H]1C[C@@]1(NC(=O)[C@@H]1C[C@@H](Oc2cc(-c3ccccc3)nc3cc(OC)ccc23)CN1C(=O)[C@@H](NC(=O)OC1CCCC1)C(C)(C)C)C(=O)NS(=O)(=O)C1(Cc2ccccc2)CC1", "strain": "1b", "read by": "replicon", "result": "0.05–0.5 µM"}
{"compound": "COc1cc(Cc2cnc(/N=C3\\C(=O)N(CN4CCN(Cc5ccccc5)CC4)c4ccc(F)cc43)nc2N)cc(OC)c1OC", "result": "<50 µg/mL"}
{"compound": "C=CC1C[C@@]1(NC(=O)[C@@H]1C[C@@H](Oc2cc(-c3ccccc3)nc3cc(OC)ccc23)CN1C(=O)[C@@H](NC(=O)COC)C(C)(C)C)C(=O)NS(=O)(=O)C1(Cc2ccccc2)CC1", "strain": "1b", "read by": "replicon", "result": "0.05–0.5 µM"}
{"compound": "C[C@@]1(O)[C@H](O)[C@@H](CO)O[C@H]1n1cnc2c(NNS(C)(=O)=O)ncnc21", "read by": "replicon", "result": "3 µM"}
{"compound": "COc1ccc(OC)c(CC(=O)N/N=C/c2ccccc2OS(=O)(=O)c2ccc(C(F)(F)F)cc2)c1", "read by": "replicon", "result": "<5 µM"}
{"compound": "COc1cc(Cc2cnc(/N=C3\\C(=O)N(CN4CCC(C)CC4)c4ccc(F)cc43)nc2N)cc(OC)c1OC", "result": "<50 µg/mL"}
{"compound": "C=C[C@H]1C[C@@]1(NC(=O)[C@@H]1C[C@@H](Oc2cc(-c3ccccc3)nc3cc(OC)ccc23)CN1C(=O)[C@@H](NC(=O)OC(C)(C)C)C(C)(C)C)C(=O)NS(=O)(=O)C1(Cc2ccncc2)CC1", "strain": "1b", "read by": "replicon", "result": "<0.05 µM"}
{"compound": "CC(C)(C)C(=O)CCOP(=O)(OCCSC(=O)C(C)(C)C)OC[C@H]1O[C@@H](n2cnc3c(NNS(C)(=O)=O)ncnc32)[C@](C)(O)[C@@H]1O", "read by": "replicon", "result": "4.7 µM"}
{"compound": "O=C(CCc1ccco1)N/N=C/c1ccccc1OS(=O)(=O)c1ccc(C(F)(F)F)cc1", "read by": "replicon", "result": "<5 µM"}
{"compound": "C=C[C@H]1C[C@@]1(NC(=O)[C@@H]1C[C@@H](Oc2cc(-c3ccccc3)nc3cc(OC)ccc23)CN1C(=O)[C@@H](NC(=O)OCC1CCOCC1)C(C)(C)C)C(=O)NS(=O)(=O)C1(Cc2ccccc2)CC1", "strain": "1b", "read by": "replicon", "result": "0.05–0.5 µM"}

For reference, 3 entries again:

compound | strain | changes | read by | result
COc1cc(Cc2cnc(/N=C3\C(=O)N(CN4CCC(C)CC4)c4ccc(F)cc43)nc2N)cc(OC)c1OC | - | - | - | <50 µg/mL
CN(C)c1ccc(CC(=O)N/N=C/c2ccccc2OS(=O)(=O)c2ccc(C(F)(F)F)cc2)cc1 | - | - | replicon | <5 µM
CN(N)c1ncnc2c1ncn2[C@@H]1O[C@H](COP(=O)(OCCSC(=O)C(C)(C)C)OCCC(=O)C(C)(C)C)[C@@H](O)[C@@]1(C)O | - | - | replicon | 0.045 µM

a–b is a range or a potency band. ECn is the concentration giving n% inhibition of infection, replication or growth. Blank or dashed fields: not listed here.